Results of unrelated studies side by side (data: NIAID ChemDB).

All rows: growth or infection tests; species: Candida albicans; method: broth dilution; read-out: MIC

Rows are shuffled and stem from different studies. An empty or dashed field is not shown.

| structure | strain | conditions | value |
|---|---|---|---|
| O=C(Nc1ccccc1)OCC1CC(c2ccccn2)=NO1 | - | - | 320 µg/mL |
| C=C1C[C@@H]2C[C@@H]3CCO[C@@H](O3)c3coc(n3)/C=C/C[C@H]3O[C@@H](/C(C)=C/I)[C@H](C)[C@@H](OC(=O)/C=C\C[C@@H](C1)O2)[C@H]3C | 96-489 | - | >64 µg/mL |
| O=C(CCn1ccnc1)c1ccc(Cl)cc1 | RTCC 1003 | - | >64 µg/mL |
| CC(C)(C)c1cn(CC(Oc2ccc(Cl)cc2)c2ccc(Cl)cc2Cl)nn1 | ATCC90027 | - | >256 µg/mL |
| COc1cc(NC(C)CCCNC(=O)[C@H](CCCN)NC(=O)[C@@H](N)CCCN)c2nc(C(C)(C)C)ccc2c1 | - | - | >20 µg/mL |
| CCOC(=O)c1c(N)oc2c1cc(O)c1sc(C)nc12 | KCCM 50235 | - | 100 µg/mL |
| COc1ccc(N/N=c2/sc3nnc(-c4ccncc4)n3nc2C)cc1 | ATCC 66027 | - | 25 µg/mL |
| C=C1C[C@@H]2C[C@@H]3CCO[C@@H](O3)c3cccc(c3)/C=C/C[C@H]3O[C@@H](/C(C)=C/I)[C@H](C)[C@@H](OC(=O)/C=C\C[C@@H](C1)O2)[C@H]3C | ATCC 14503 | - | >64 µg/mL |
| COc1cncc(C(N)=NN(C)S(=O)(=O)c2ccc(C)cc2)n1 | - | - | >256 µg/mL |
| COc1cc(NC(C)CCCNC(=O)[C@@H](CCCN=C(N)N)NC(=O)[C@H](N)CCCN=C(N)N)c2nc(C(C)(C)C)ccc2c1 | - | - | >20 µg/mL |
| O=C1c2ccccc2CC1Cn1ccnc1 | RTCC 1003 | - | >64 µg/mL |
| COc1cncc(C(N)=NN)n1 | - | - | >256 µg/mL |
| O=C(/C=C/c1cccc(Cl)c1Cl)c1c[nH]c2ccccc12 | ATCC 90028 | - | 200 µg/mL |
| COc1cc(OC/C(=N/O)c2ccccc2)cc(OC)c1OC | ATCC 10231 | 48 h | >125 µg/mL |
| CCn1c2ccccc2c2cnn(-c3ccc(F)cc3)c(=O)c21 | - | - | 250 µg/mL |
| Cc1coc2c1C(=O)[C@@H]1[C@](C)([C@H](O)CC[C@@]1(C)O)[C@@H]2O | ATCC 90028 | - | 16 µg/mL |
| Nn1c(SCC(O)(Cn2cncn2)c2ccc(F)cc2F)nnc1-c1ccc(O)cc1 | ATCC 18804 | - | >64 µg/mL |
| CC1(C)S[C@@H]2[C@H](NC(=O)[C@H](N)c3ccccc3)C(=O)N2[C@H]1C(=O)O | Clinical Isolate 092251 | - | 4.7 µg/mL |
| COc1cncc(-c2ncn(S(=O)(=O)c3ccc(C)cc3)n2)n1 | - | - | >256 µg/mL |
| Nn1c(SCC(O)(Cn2cncn2)c2ccc(Cl)cc2Cl)nnc1-c1cccc(Br)c1 | IRFC 192 | - | >64 µg/mL |
| O=C(CCn1ccnc1)c1cccc2ccccc12 | RTCC1024 | - | >64 µg/mL |
| COc1ccc(OC/C(=N/O)c2ccccc2)cc1 | ATCC 10231 | 48 h | >125 µg/mL |
| Cc1ccc(NC2=C(Cl)C(=O)c3nc(C)sc3C2=O)cc1 | KCCM 50235 | - | 12.5 µg/mL |
| Cc1ccc(C(O)c2cccc(C(O)CCn3ccnc3)c2)cc1 | RTCC1024 | - | >64 µg/mL |
| NN=C(N)c1cncc(Cl)n1 | - | - | 128 µg/mL |
| COc1cc(NC(C)CCCNC(=O)CC(NC(=O)[C@H](N)CCCN)C(=O)O)c2ncccc2c1 | - | - | >20 µg/mL |
| Cc1nn2c(-c3ccncc3)nnc2s/c1=N/Nc1ccc(S(N)(=O)=O)cc1 | ATCC 66027 | - | 12.5 µg/mL |
| CNN=C(N)c1cncc(OC)n1 | - | - | >256 µg/mL |
| COc1cc(NC(C)CCCNC(=O)[C@@H](CCCCN)NC(=O)[C@H](N)CCCCN)c2nc(C(C)(C)C)ccc2c1 | - | - | >20 µg/mL |
| CC1=C2C3=C4[C@](C)([C@@H]5C[C@@H]5[C@@]4(O)C[C@@H]4[C@]35OC(=O)C3=C5C[C@H]5[C@](O)(COC(=O)/C(C)=C/COC(=O)CCC(=O)OC3)[C@H]3C[C@H]3[C@]45C)[C@H](O)[C@]2(O)OC1=O | ATCC 90028 | - | 8 µg/mL |
| C=C1C[C@@H]2C[C@@H]3CCO[C@@H](O3)c3cccc(c3)/C=C\C[C@H]3O[C@@H](/C(C)=C/I)[C@H](C)[C@@H](OC(=O)/C=C/C[C@@H](C1)O2)[C@H]3C | ATCC 14503 | - | >64 µg/mL |
| Cc1nc2c(s1)C(=O)C(Nc1ccccc1)=C(Cl)C2=O | KCCM 50235 | - | 12.5 µg/mL |
| Cc1ccc(N2N=C(c3c[nH]c4ccccc34)CC2c2ccc(Cl)cc2Cl)cc1 | ATCC 90028 | - | 200 µg/mL |
| Cc1nc2c(s1)C(=O)C(Nc1ccc(I)cc1)=C(Cl)C2=O | KCCM 50235 | - | 3.2 µg/mL |
| Nn1c(SCC(O)(Cn2cncn2)c2ccc(Cl)cc2Cl)nnc1-c1ccc(O)cc1 | IRFC 192 | - | >64 µg/mL |
| Cc1ccc(C(O)c2cccc(C(=O)CCn3ccnc3)c2)cc1 | RTCC1024 | - | >64 µg/mL |
| CCOC(=O)Nc1ccc2c(c1)nc(-c1ccccc1)n2[O-] | - | - | 200 µg/mL |
| CCCCCOc1ccc(-c2cc(-c3ccc(C(=O)N[C@H]4C[C@@H](O)[C@@H](O)NC(=O)[C@@H]5[C@@H](O)[C@@H](C)CN5C(=O)[C@H]([C@H](O)CC(N)=O)NC(=O)[C@H]([C@H](O)[C@@H](O)c5ccc(O)c(OS(=O)(=O)O)c5)NC(=O)[C@@H]5C[C@@H](O)CN5C(=O)[C@H]([C@@H](C)O)NC4=O)cc3)no2)cc1 | FP633 | - | 0.78 µg/mL |
| Cn1c2ccccc2c2cnn(-c3ccc(Br)cc3)c(=O)c21 | - | - | 250 µg/mL |
| Nn1c(SCC(O)(Cn2cncn2)c2ccc(Cl)cc2Cl)nnc1-c1ccc(Cl)cc1Cl | ATCC 18804 | - | 4 µg/mL |
| O=C(COc1ccc(F)cc1)c1ccccc1 | ATCC 10231 | 24 h | >125 µg/mL |
| COc1cc(NC(C)CCCNC(=O)CCC(NC(=O)[C@@H](N)CCCN)C(=O)O)c2nc(C(C)(C)C)ccc2c1 | - | - | >20 µg/mL |
| Cc1ccc(N/N=c2/sc3nnc(-c4ccncc4)n3nc2C)cc1 | ATCC 66027 | - | >100 µg/mL |
| OC(CCn1ccnc1)c1ccc(Br)cc1 | RTCC 1003 | - | >64 µg/mL |
| O=C(/C=C/c1ccc(Cl)cc1Cl)c1c[nH]c2ccccc12 | ATCC 90028 | - | 400 µg/mL |
| C[C@H]1[C@H](O)[C@@H](C)/C=C/C=C/C=C/C=C/C=C/C=C/C=C/[C@H](O[C@@H]2O[C@H](C)[C@@H](O)[C@H](N)[C@@H]2O)C[C@@H]2O[C@](O)(C[C@@H](O)C[C@@H](O)CC[C@H](O)[C@@H](O)C[C@@H](O)CC(=O)O[C@H]1C)C[C@H](O)[C@H]2C(=O)O | 204276 | - | 0.06 µg/mL |
| O=C(COc1cccc(F)c1)c1ccccc1 | ATCC 10231 | 48 h | >125 µg/mL |
| C=C1C[C@@H]2C[C@@H]3CCO[C@@H](O3)c3coc(n3)/C=C/C[C@H]3O[C@@H](/C(C)=C/I)[C@H](C)[C@@H](OC(=O)/C=C/C[C@@H](C1)O2)[C@H]3C | UCD-FR1 | - | >64 µg/mL |
| COC(=O)Nc1ccc(NC(=O)OCc2cc(-c3cccc(Br)c3)no2)cc1 | - | - | 320 µg/mL |
| COc1ccc(-n2ncc3c4ccccc4n(C)c3c2=O)cc1 | - | - | 250 µg/mL |
| OCCc1cn(CC(Oc2ccc(OC(F)(F)F)cc2)c2ccc(Cl)cc2Cl)nn1 | ATCC90027 | - | >64 µg/mL |
| COc1cc(NC(C)CCCNC(=O)CCC(NC(=O)[C@@H](N)CCCCN)C(=O)O)c2nc(C(C)(C)C)ccc2c1 | - | - | >20 µg/mL |
| COc1cncc(-c2n[nH]c(-c3cnccn3)n2)n1 | - | - | >256 µg/mL |
| C/C1=C\C(=O)c2c(C)coc2C/C(C)=C/CC1 | ATCC 90028 | - | 128 µg/mL |
| Cc1nc2c(s1)C(=O)C(Nc1ccc(C)c(C)c1)=C(Cl)C2=O | KCCM 50235 | - | 3.2 µg/mL |
| Nn1c(SCC(O)(Cn2cncn2)c2ccc(F)cc2F)nnc1-c1ccc(Cl)cc1 | IRFC 37 | - | >64 µg/mL |
| COC(=O)c1c(N)oc2c1cc(O)c1sc(C)nc12 | KCCM 50235 | - | 100 µg/mL |
| COc1cncc(-c2nc(-c3ccccc3)[n+](-c3ccccc3)[nH]2)n1 | - | - | >256 µg/mL |
| CC(C)(O)c1cn(-c2ccc(Cl)cc2)nn1 | URM 4609 | - | 128 µg/mL |
| Cc1ccc(N2N=C(c3c[nH]c4ccccc34)CC2c2cc(Cl)cc(Cl)c2)cc1 | ATCC 90028 | - | 200 µg/mL |
| CCCCCCCCCCCCCCCC(=O)NC(CCCCN)C(=O)NC(CCCCN)C(N)=O | 90029 | - | 0.5 µg/mL |
| COc1ccc(OCC(=O)c2ccccc2)cc1 | ATCC 10231 | 48 h | >125 µg/mL |
| COc1cncc(C(N)=NN(C)S(=O)(=O)c2ccccc2)n1 | - | - | >256 µg/mL |
| COC(=O)/C(C)=C1\C(=O)[C@H](O)[C@]2(C)C3=C(C[C@@H]4[C@]5(OC(=O)C6=C5C[C@H]5[C@](O)(COC(=O)/C(C)=C/COC(=O)CCC(=O)OC6)[C@H]6C[C@H]6[C@]45C)[C@H]31)[C@H]1C[C@H]12 | ATCC 90028 | - | 4 µg/mL |
| Cc1ccc(N2N=C(c3c[nH]c4ccccc34)CC2c2cc(Cl)ccc2Cl)cc1 | ATCC 90028 | - | 200 µg/mL |
| COC(=O)N1CCOc2ccc([N+](=O)[O-])cc21 | - | - | 320 µg/mL |
| OC(CCn1ccnc1)c1cccc(C(O)c2ccc(Cl)c(Cl)c2)c1 | RTCC 1003 | - | >64 µg/mL |
| COc1cc(NC(C)CCCNC(=O)CC(NC(=O)[C@H](N)CCCN)C(=O)O)c2nc(C(C)(C)C)ccc2c1 | - | - | >20 µg/mL |
| COc1ccc(NC2=C(Cl)C(=O)c3nc(C)sc3C2=O)cc1 | KCCM 50235 | - | 1.6 µg/mL |
| CCOC(=O)c1c(/C=N\O)c2ccccc2n1C | - | - | 250 µg/mL |
| Clc1cncc(-c2nc[n+](-c3ccccc3)[nH]2)n1 | - | - | >256 µg/mL |